Results published in patent US9776963B2, “Small molecule CD4 mimetics and uses thereof” (priority 2008, dated 2017).

Experiments:
gp120 core-17b complex = gp120 core-17b complex (Human immunodeficiency virus type 1 group M subtype B, UniProt P35961); assay: Optical biosensor (BIAcore) binding assay; parameters: species or system HIV; conditions: BIAcore analysis
YU2 gp120 = molecular target: T1, YU2 gp120 (Human immunodeficiency virus type 1 group M subtype B, UniProt P35961); assay: Compound binding assay with [3H]-NBD-556, YU2 gp120; parameters: species or system HIV
T1 construct: (His)6 (C); made in house; host or cells: 293F cells

[1] = molecular target: gp120 core bound to the 17b antibody (Human immunodeficiency virus type 1 group M subtype B, UniProt P35961); assay: Isothermal titration calorimetry, gp120 core bound to 17b; type: binding, HIV
[2] = molecular target: T2, w.t. HIV-1 YU2 gp120 glycoprotein (Human immunodeficiency virus type 1 group M subtype B, UniProt P35961); type: binding; conditions: w.t. gp120, ITC, 25° C.
T2 construct: (His)6 (C); made in house; host or cells: 293F cells

HIVYU2 gp120 core = HIVYU2 gp120 core (Human immunodeficiency virus type 1 group M subtype B, UniProt P35961); assay: Isothermal titration calorimetry, thermodynamic cycle, gp120 core; type: binding, HIV; conditions: gp120 core alone, calculated by completing the thermodynamic cycle
[3] = molecular target: T2, w.t. HIV-1 YU2 gp120 glycoprotein; conditions: on average; cited from earlier work

NBD-556
Kd (gp120 core-17b complex): 6.6 µM | direct binding of 3H-labeled compound (in words) (YU2 gp120): efficiently | Kd ([1]; gp120 core bound to the 17b antibody, ITC): 1500 nM | increase in affinity for the gp120 core bound to the 17b antibody ([1]; versus gp120 core alone): approximately 25 fold | Kd [2]: 3.7 µM | Kd (HIVYU2 gp120 core): 40 µM | residues structured on binding [3]: 67 residues
